A mixed list of measured activities; the numbers were collected in NIAID ChemDB.

All rows: cytotoxicity tests; cells: MT-4; measure: CC50

An empty or dashed field is not shown. Neighbouring rows are from separate reports. CCn is the concentration with n% toxicity to the cells.

| structure | read by | value |
|---|---|---|
| O=C(Cc1cn([C@H]2C=C[C@@H](CO)O2)c(=O)[nH]c1=O)NCCCCCCCCCCCCNC(=O)c1c2ccccc2nc2ccccc12 | MTT | >10 µM |
| CC(=O)OC[C@H]1O[C@@H](n2c3c(c(-c4ccc(Cl)cc4)c(C#N)c2=S)Cc2ccccc2-3)[C@H](OC(C)=O)[C@@H](OC(C)=O)[C@H]1OC(C)=O |  | 8.76 µM |
| CC1NCCn2c1nc(C(=O)NCc1ccc(F)cc1)c(O)c2=O | microscopy | >1 µM |
| Cc1cn([C@H]2C[C@H](N=[N+]=[N-])[C@@H](COP(=O)(O)CCN)O2)c(=O)[nH]c1=O | MTT | 2700 µM |
| O=C(c1ccccc1)n1c(=O)ccn([C@@H]2C=C[C@@H](O)CC2)c1=O | MTT | >25 µg/mL |
| CC1C2CC2C(C)N2CN1C(=O)c1c(O)c(=O)c(C(=O)NCc3c(F)cc(F)cc3F)cn12 | luminescence | 34.3 µM |
| Nc1nc(=O)n([C@@H]2CO[C@@H](CO)S2)cc1F |  | >100 µg/mL |
| O=C(O)c1ccc(-c2c3nc(c(-c4ccc(C(=O)O)cc4)c4ccc([nH]4)c(-c4ccc(C(=O)O)cc4)c4nc(c(-c5ccc(C(=O)O)cc5)c5ccc2[nH]5)C=C4)C=C3)cc1 |  | 23 µg/mL |
| O=C(NCc1ccc(F)cc1)C1C(=O)N(O)C(=O)c2ccccc21 | MTT | 202 µM |
| O=C(COc1nsnc1-c1cccc2ccccc12)Nc1ccccc1[N+](=O)[O-] | MTT | ≥66 µM |
| Cc1cn([C@H]2C[C@H](N=[N+]=[N-])[C@@H](COP(=O)(O)C(=O)NCCO)O2)c(=O)[nH]c1=O | MTT | 2400 µM |
| Nc1ccn([C@H]2CC[C@@H](CO)O2)c(=O)n1 | MTT | 2451 µM |
| Cc1cn([C@H]2C[C@H](N=[N+]=[N-])[C@@H](COP(=O)(O)CO)O2)c(=O)[nH]c1=O | MTT | 2800 µM |
| CC(=O)N1CCc2nc(C(=O)NCc3ccc(F)cc3)c(O)c(=O)n2CC1 | microscopy | >1 µM |
| O=C1C=C[C@@H](n2cnc3c(Cl)ncnc32)CC1 | MTT | 0.5 µg/mL |
| Cc1cnc(Nc2ccc(C#N)cc2)nc1C(C)(O)c1ccc(F)cc1 | MTT | 38.2 µM |
| COC(=O)[C@H](C)NP(=O)(OC[C@@H]1C=C[C@H](n2cc(CC(=O)NCCCCCCCCCCNC(=O)C(F)(F)F)c(=O)[nH]c2=O)O1)Oc1ccccc1 | MTT | >10 µM |
| [C-]#[N+]C[C@H]1O[C@@H](n2ccc(=O)[nH]c2=O)C[C@@H]1O |  | >200 µM |
| CCOC(=O)c1ccc(NC(=O)COc2nsnc2-c2cccc3ccccc23)cc1 | MTT | 85 µM |
| NS(=O)(=O)c1ccc(-c2c3nc(c(-c4ccc(S(N)(=O)=O)cc4)c4ccc([nH]4)c(-c4ccc(S(N)(=O)=O)cc4)c4nc(c(-c5ccc(S(N)(=O)=O)cc5)c5ccc2[nH]5)C=C4)C=C3)cc1 |  | 70 µg/mL |
| CC1=C[C@H](C)N2CN([C@@H]1C)n1cc(C(=O)NCc3ccc(F)cc3F)c(=O)c(O)c1C2=O | luminescence | 50 µM |
| NCCC[C@@H](N)CC(=O)NCN |  | >11500 µM |
| Cc1cn([C@H]2C[C@H](N=[N+]=[N-])[C@@H](CO)O2)c(=O)[nH]c1=O | WST | >4.482 µM |
| COc1ccc(Cn2cc(COc3nsnc3-c3cccc4ccccc34)nn2)cc1 | MTT | >116 µM |
| CC(=O)Nc1cnc(Oc2c(Cl)cc(Cl)cc2Cl)nc1Nc1ccc(C#N)cc1 | MTT | 33 µM |
| Cc1cn([C@@H]2O[C@H](CO)[C@@H](C#N)[C@@H]2O)c(=O)[nH]c1=O |  | >500 µM |
| Nc1ncnc2c1ncn2[C@@H]1CO[C@H](CO)S1 |  | >100 µg/mL |
| Cc1cc(C#N)cc(C)c1Oc1ncc(N)c(Nc2ccc(C#N)cc2)n1 | MTT | 35.1 µM |
| O=C(COc1nsnc1-c1cccc2ccccc12)Nc1ccccn1 | MTT | ≥13 µM |
| CC(=O)N(C)C1COCCn2c1nc(C(=O)NCc1ccc(F)cc1)c(O)c2=O | microscopy | >1 µM |
| O=c1ccn([C@H]2CO[C@@H](CO)S2)c(=O)[nH]1 |  | >100 µg/mL |
| Cc1cn([C@H]2C=C[C@@H](CO)O2)c(=O)[nH]c1=O |  | 20 µM |
| Clc1ncnc2c1ncn2[C@H]1C=CC2(CC1)O[C@H](c1ccccc1)[C@@H](c1ccccc1)O2 | MTT | 6.4 µg/mL |
| CN1CCn2c(nc(C(=O)NCc3ccc(F)cc3)c(O)c2=O)C12CCOCC2 | microscopy | >1 µM |
| CCOC(=O)c1ccc(NC(=O)COc2nsnc2-c2cccc3ccccc23)c(Br)c1 | MTT | >98 µM |
| Cc1cn([C@H]2C[C@H](N=[N+]=[N-])[C@@H](CO)O2)c(=O)[nH]c1=O | MTT | >1 µM |
| CC(=O)Nc1cnc(Oc2c(Cl)cccc2Cl)nc1Nc1ccc(C#N)cc1 | MTT | 193 µM |
| COC(=O)[C@H](C)NP(=O)(OC[C@@H]1C=C[C@H](n2cc(CC(=O)NCCCCCCCCCCCCNC(=O)C(F)(F)F)c(=O)[nH]c2=O)O1)Oc1ccccc1 | MTT | >10 µM |
| [C-]#[N+]C[C@H]1O[C@@H](n2cc(C)c(=O)[nH]c2=O)C[C@@H]1N=[N+]=[N-] |  | >40 µM |
| Cc1cc(C)c(Oc2ncc(N)c(Nc3ccc(C#N)cc3)n2)c(C)c1 | MTT | 10 µM |
| COC(=O)c1ccc(NC(=O)COc2nsnc2-c2cccc3ccccc23)cc1 | MTT | 4.9 µM |
| O=C(Cc1cn([C@H]2C=C[C@@H](CO)O2)c(=O)[nH]c1=O)NCCCCCCCCCCNC(=O)c1c2ccccc2nc2ccccc12 | MTT | >10 µM |
| Cc1ccc(CNC(=O)c2nc3n(c(=O)c2O)CCN(C)CC3N(C)C(=O)C(=O)N(C)C)cc1Cl | microscopy | >1 µM |
| Nc1nc2c(ncn2[C@H]2CS[C@@H](CO)O2)c(=O)[nH]1 |  | 100 µg/mL |
| O=c1ccn([C@H]2C=C[C@@H](O)CC2)c(=O)[nH]1 | MTT | >25 µg/mL |

6 of the rows above, restated:

{"structure": "Nc1nc(=O)n([C@@H]2CO[C@@H](CO)S2)cc1F", "value": ">100 µg/mL"}
{"structure": "O=c1ccn([C@H]2C=C[C@@H](O)CC2)c(=O)[nH]1", "read by": "MTT", "value": ">25 µg/mL"}
{"structure": "CCOC(=O)c1ccc(NC(=O)COc2nsnc2-c2cccc3ccccc23)cc1", "read by": "MTT", "value": "85 µM"}
{"structure": "CN1CCn2c(nc(C(=O)NCc3ccc(F)cc3)c(O)c2=O)C12CCOCC2", "read by": "microscopy", "value": ">1 µM"}
{"structure": "NCCC[C@@H](N)CC(=O)NCN", "value": ">11500 µM"}
{"structure": "O=C(COc1nsnc1-c1cccc2ccccc12)Nc1ccccc1[N+](=O)[O-]", "read by": "MTT", "value": "≥66 µM"}